Compound potency records, mixed from different reports. Data source: NIAID ChemDB in PubChem.

Shared fields: enzyme or target tests; species: HIV-1; target: Reverse transcriptase; read-out: Ki

Neighbouring rows are from separate reports. An empty or dashed field is not shown.

[B-][P@@](=O)(OC[C@H]1O[C@@H](n2cc(C)c(=O)[nH]c2=O)C[C@@H]1N=[N+]=[N-])OP(=O)(O)OP(=O)(O)O ; method: fluorescence ; result: 0.048 µM
CCCCN(CCCC)c1nc(OCCc2ccc([N+](=O)[O-])cc2)c2ncn([C@@H]3O[C@H](COP(O)(=S)O[C@H]4[C@@H](F)[C@H](n5cnc6c(N)ncnc65)O[C@@H]4CO)[C@@H](O)[C@H]3O)c2n1 ; method: RT activity ; result: 19.3 µM
Cc1cn([C@H]2C[C@H](O)[C@](COP(=O)(O)OP(=O)(O)OP(=O)(O)O)(N=[N+]=[N-])O2)c(=O)[nH]c1=O ; result: 0.0085 µM
Nc1ncnc2c1ncn2[C@@H]1CC[C@H](COP(=O)(O)OP(=O)(O)OP(=O)(O)O)O1 ; result: 2 µM
Nc1nc2c(ncn2[C@H]2C=C[C@@H](COP(=O)(O)OP(=O)(O)OP(=O)(O)O)C2)c(=O)[nH]1 ; method: RT activity / binding ; result: 1.7 µM
CCOP(=O)(Cc1ccccc1)OC1C=CC(n2ccc(=O)[nH]c2=O)C1 ; method: RT activity ; result: >100 µM
O=C1Cc2ccc(-c3ccco3)cc2C(=O)N1O ; method: RT activity / nucleotide incorporation / absorbance ; result: 0.14 µM
Nc1nc2c(ncn2[C@@H]2O[C@H](COP(=O)(O)OP(=O)(O)OP(=O)(O)O)[C@H]2CO)c(=O)[nH]1 ; result: 0.9 µM
CCOP(=O)(Cc1ccccc1)OC1C=CC(n2ccc(=O)n(Cc3ccccc3)c2=O)C1 ; method: RT activity ; result: >100 µM
Nc1nc2c(ncn2[C@H]2CC[C@@H](COP(=O)(O)OP(=O)(O)OP(=O)(O)O)O2)c(=O)[nH]1 ; mutations: RT-A62V V75I F77L F116Y Q151M ; method: nucleotide incorporation / radiometric ; result: 0.052 µM
CCOC(=O)c1c(C(C)C)c(C#N)c(=N)n2ccccc12 ; strain: LAV ; method: RT activity ; result: 64.5 µM
Nc1ccn([C@H]2CC[C@@H](COP(=O)(O)OP(=O)(O)OP(=O)(O)O)O2)c(=O)n1 ; result: 0.038 µM
C#CC(O)/C=C/C/C=C/C=C/C=C/CC#CC(O)C#CC/C=C/C=C/C=C/CC(O)C#C ; method: radiometric ; result: 0.513 µM
C=Cc1cc(N(C)C)nc(S(C)(=O)=O)n1 ; mutations: RT-Y181I ; method: nucleotide incorporation / radiometric ; result: 39 µM
O=c1ccn(C2C=CC(OP(=O)(Cc3ccccc3)OCc3ccccc3)C2)c(=O)[nH]1 ; method: RT activity ; result: >100 µM
[N-]=[N+]=Nc1ccc(C(=O)CSc2nc3c(ncn3[C@H]3C[C@H](O)[C@@H](COP(=O)(O)OP(=O)(O)OP(=O)(O)O)O3)c3nccn23)cc1 ; method: radiometric ; result: 10 µM
COc1ccccc1N1CCN(c2nc(Cc3c(F)cccc3F)c(C)c(=O)[nH]2)CC1 ; mutations: V106A ; method: nucleotide incorporation ; result: 4.1 µM
Nc1nc2c(ncn2[C@H]2CC[C@@H](COP(=O)(O)OP(=O)(O)OP(=O)(O)O)O2)c(=O)[nH]1 ; strain: LAV ; method: nucleotide incorporation ; result: 0.07 µM
CC(=O)Nc1ccc(C(=O)CSc2nc3c(ncn3[C@H]3C[C@H](O)[C@@H](COP(=O)(O)OP(=O)(O)OP(=O)(O)O)O3)c3nccn23)cc1 ; method: radiometric ; result: 75 µM
O=C(/C=C/c1ccc(O)c2c1[C@H](C(=O)O)[C@@H](c1ccc(O)c(O)c1)O2)O[C@H](Cc1ccc(O)c(O)c1)C(=O)O ; method: nucleotide incorporation ; result: 0.8 µM
Cc1cc(C)cc(S(=O)(=O)c2c(C(=O)NCC(N)=O)[nH]c3ccc(Cl)c(F)c23)c1 ; mutations: Y181C ; method: RT activity / nucleotide incorporation ; result: 2.6 µM
[N-]=[N+]=Nc1c(F)c(F)c(C(=O)CSc2nc3c(ncn3[C@H]3C[C@H](O)[C@@H](COP(=O)(O)OP(=O)(O)OP(=O)(O)O)O3)c3nccn23)c(F)c1F ; method: radiometric ; result: 10 µM
Nc1ccn([C@@H]2O[C@H](CO)C[C@@H]2F)c(=O)n1 ; result: 0.27 µM
Nc1ccn([C@@H]2CS[C@H](COP(=O)(O)OP(=O)(O)OP(=O)(O)O)O2)c(=O)n1 ; method: nucleotide incorporation ; result: 1 µM
Nc1ccn([C@@H]2CS[C@H](COP(=O)(O)OP(=O)(O)OP(=O)(O)O)O2)c(=O)n1 ; strain: WT ; method: radiometric ; result: 0.233 µM
O=C(O[C@@H]1Cc2c(O)cc(O)cc2O[C@@H]1c1cc(O)c(O)c(O)c1)c1cc(O)c(O)c(O)c1 ; result: 0.0028 µM
Nc1ccn([C@H]2CS[C@@H](COP(=O)(O)OP(=O)(O)OP(=O)(O)O)O2)c(=O)n1 ; method: nucleotide incorporation ; result: 0.54 µM
CCC(c1nc(N(C)C)[nH]c(=O)c1C)c1c(F)cccc1F ; mutations: L100I ; method: nucleotide incorporation ; result: >20 µM
CCCCCCCCCCCCCCCC/C=C\CCC#CCCC(=O)O[C@H](C)C[C@H](CCC[C@@](C)(O)CC(=O)NCCS(=O)(=O)O)CC(C)=O ; result: 1.5 µM
C=CC(C)(C)n1cc(C2=C(O)C(=O)C(c3cn(C(C)(C)C=C)c4ccccc34)=C(O)C2=O)c2ccccc21 ; method: binding ; result: 2.3 µM
Nc1nc(=O)n([C@H]2CS[C@@H](COP(=O)(O)OP(=O)(O)OP(=O)(O)O)O2)cc1F ; result: 2.5 µM
O=c1cc(Cc2ccccc2)nc(SCCCCO)[nH]1 ; result: 100 µM
Cc1cc(C)cc(S(=O)(=O)c2c(C(=O)NCCOc3ccccc3)[nH]c3ccc(Cl)c(F)c23)c1 ; mutations: L100I ; method: RT activity / nucleotide incorporation ; result: 0.002 µM
Nc1ncnc2c1ncn2[C@H]1CC[C@@H](COP(=O)(O)OP(=O)(O)OP(=O)(O)O)O1 ; strain: LAV ; method: nucleotide incorporation ; result: 13 µM
Nc1ccn([C@@H]2CS[C@H](COP(=O)(O)OP(=O)(O)OP(=O)(O)O)O2)c(=O)n1 ; result: 1 µM
NC(=O)c1[nH]c2ccc(Cl)cc2c1S(=O)(=O)c1ccccc1 ; strain: WT ; method: nucleotide incorporation / radiometric ; result: 0.0003 µM
Nc1ncnc2c1ncn2[C@H]1CC[C@@H](COP(=O)(O)OP(=O)(O)OP(=O)(O)O)O1 ; mutations: RT-A62V V75I F77L F116Y Q151M ; method: nucleotide incorporation / radiometric ; result: 4.1 µM
Cc1cc(C)cc(S(=O)(=O)c2c(C(=O)NC(C)C(N)=O)[nH]c3ccc(Cl)cc23)c1 ; strain: WT ; method: nucleotide incorporation / radiometric ; result: 0.0003 µM
COc1c(C)c(O)c(C(C)=O)c(O)c1Cc1c(O)c(CC=C(C)C)c(O)c(C(C)=O)c1O ; method: RT activity ; result: 6.1 µM
C=Cc1cc(N(CCC)CCC)nc(S(C)(=O)=O)n1 ; mutations: RT-Y181I ; method: nucleotide incorporation / radiometric ; result: >400 µM
Cc1c(Cc2ccccc2)nc(SCCCCO)[nH]c1=O ; mutations: RT-V106A ; result: 96 µM
CSCSc1nc(Cc2ccccc2)c(C)c(=O)[nH]1 ; method: scintillation proximity ; result: 3.3 µM
Cc1cn([C@H]2CC[C@@H](COP(=O)(O)OP(=O)(O)OP(=O)(O)O)O2)c(=O)[nH]c1=O ; strain: LAV ; method: nucleotide incorporation ; result: 0.03 µM
O=P(O)(O)OP(=O)(O)O ; strain: WT ; method: nucleotide incorporation / radiometric ; result: 185 µM
Cn1c(=O)c2[nH]c(NCC34CC5CC(CC(C5)C3)C4)nc2n(C)c1=O ; method: RT activity / radiometric ; result: 50 µM

Again, the opening 6 rows:

SMILES	strain	mutations	method	result
[B-][P@@](=O)(OC[C@H]1O[C@@H](n2cc(C)c(=O)[nH]c2=O)C[C@@H]1N=[N+]=[N-])OP(=O)(O)OP(=O)(O)O			fluorescence	0.048 µM
CCCCN(CCCC)c1nc(OCCc2ccc([N+](=O)[O-])cc2)c2ncn([C@@H]3O[C@H](COP(O)(=S)O[C@H]4[C@@H](F)[C@H](n5cnc6c(N)ncnc65)O[C@@H]4CO)[C@@H](O)[C@H]3O)c2n1			RT activity	19.3 µM
Cc1cn([C@H]2C[C@H](O)[C@](COP(=O)(O)OP(=O)(O)OP(=O)(O)O)(N=[N+]=[N-])O2)c(=O)[nH]c1=O				0.0085 µM
Nc1ncnc2c1ncn2[C@@H]1CC[C@H](COP(=O)(O)OP(=O)(O)OP(=O)(O)O)O1				2 µM
Nc1nc2c(ncn2[C@H]2C=C[C@@H](COP(=O)(O)OP(=O)(O)OP(=O)(O)O)C2)c(=O)[nH]1			RT activity / binding	1.7 µM
CCOP(=O)(Cc1ccccc1)OC1C=CC(n2ccc(=O)[nH]c2=O)C1			RT activity	>100 µM